PubChem BioAssay AID504761 | Drosophila RNAi Screening Center, 2011
The screen tested about 22,000 reagents; below is an unselected part of those that have a named target and a result. Over the whole deposit, 116 (0.52%) got an active call. 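Calls depend on retest data that are not deposited; infection was ranked per plate without normalising between plates; the unit of the infection score is not given.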 The raw values are shown without normalisation. Further read-outs or replicates are left out here. Not given: the amount of reagent, the time to read-out.

Assay: 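Genome-wide fly cell screen for genes dengue virus requires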 (primary screen)
System: D.Mel-2 cells from Drosophila
Reagent: long dsRNA against Drosophila genes
Treatment: infection with dengue virus type 2; dose and infection time not stated
Measured: 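Cells stained for dengue envelope protein and imaged; percent of infected cells per well on duplicate plates, ranked by infection, with stained nuclei counted for cell number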
Direction: infection score: higher = more virus-infected cells; cell count: higher = more cells in the well
Active means: 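Low infection ranks in the two replicates (chance level up to 0.065) followed by a retest with a 1.5-fold or larger significant decrease, p below 0.05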
Calls: active = confirmed: knock-down lowers infection; inactive = not picked or not confirmed

Acsx3 (Acyl-CoA synthetase X3) [DRSC14309]: infection score, replicate 1 = 1.54; cell count, replicate 1 = 6628; outcome = inactive
Esp (Epidermal stripes and patches) [DRSC16664]: cell count, replicate 1 = 358; outcome = inactive
ssp3 (short spindle 3) [DRSC02669]: infection score, replicate 1 = 20; cell count, replicate 1 = 4614; outcome = inactive
ssp3 (short spindle 3) [DRSC02670]: infection score, replicate 1 = 1.71; cell count, replicate 1 = 6325; outcome = inactive
ssp3 (short spindle 3) [DRSC27298]: infection score, replicate 1 = 27.8; cell count, replicate 1 = 6133; outcome = inactive
CG7848 [DRSC07050]: infection score, replicate 1 = 11.8; cell count, replicate 1 = 6264; outcome = inactive
ppk22 (pickpocket 22) [DRSC22093]: infection score, replicate 1 = 4.04; cell count, replicate 1 = 6517; outcome = inactive
Acsx2 (Acyl-CoA synthetase X2) [DRSC14308]: infection score, replicate 1 = 7.9; cell count, replicate 1 = 3000; outcome = inactive
Diap1 (Death-associated inhibitor of apoptosis 1) [DRSC11404]: cell count, replicate 1 = 70; outcome = inactive
CG5787 [DRSC02895]: infection score, replicate 1 = 2.87; cell count, replicate 1 = 6166; outcome = inactive
CG5787 [DRSC28731]: infection score, replicate 1 = 1.08; cell count, replicate 1 = 463; outcome = inactive
CG1636 [DRSC18111]: infection score, replicate 1 = 7.64; cell count, replicate 1 = 6190; outcome = inactive

2 consecutive entries from above, quoted:
ssp3 (short spindle 3) [DRSC02669]: infection score, replicate 1 = 20; cell count, replicate 1 = 4614; outcome = inactive
ssp3 (short spindle 3) [DRSC02670]: infection score, replicate 1 = 1.71; cell count, replicate 1 = 6325; outcome = inactive

Further records:
CG15471 [DRSC18054]: infection score, replicate 1 = 5.1; cell count, replicate 1 = 960; outcome = inactive
CG15471 [DRSC26243]: infection score, replicate 1 = 2.68; cell count, replicate 1 = 5682; outcome = inactive
hng1 (hinge1) [DRSC04555]: infection score, replicate 1 = 2.38; cell count, replicate 1 = 6430; outcome = inactive
Herp (Homocysteine-induced endoplasmic reticulum protein) [DRSC02394]: infection score, replicate 1 = 1.64; cell count, replicate 1 = 6025; outcome = inactive
Herp (Homocysteine-induced endoplasmic reticulum protein) [DRSC26891]: infection score, replicate 1 = 11.5; cell count, replicate 1 = 6589; outcome = inactive
CG31647 (retired record) [DRSC21903]: infection score, replicate 1 = 16.3; cell count, replicate 1 = 5227; outcome = inactive
CG31647 (retired record) [DRSC24136]: infection score, replicate 1 = 1.76; cell count, replicate 1 = 6032; outcome = inactive
CG31415 [DRSC22409]: infection score, replicate 1 = 0.66; cell count, replicate 1 = 6032; outcome = inactive
NC2beta (Negative Cofactor 2beta) [DRSC01895]: infection score, replicate 1 = 13.6; cell count, replicate 1 = 6039; outcome = inactive
NC2beta (Negative Cofactor 2beta) [DRSC25346]: infection score, replicate 1 = 1.58; cell count, replicate 1 = 6124; outcome = inactive
ssp6 (short spindle 6) [DRSC08791]: infection score, replicate 1 = 6.01; cell count, replicate 1 = 5262; outcome = inactive
ssp6 (short spindle 6) [DRSC10677]: infection score, replicate 1 = 4.06; cell count, replicate 1 = 6249; outcome = inactive
ssp6 (short spindle 6) [DRSC27709]: infection score, replicate 1 = 8.5; cell count, replicate 1 = 6801; outcome = inactive
GckIII (Germinal centre kinase III) [DRSC15729]: infection score, replicate 1 = 7.63; cell count, replicate 1 = 6909; outcome = inactive
Cyp6t3 (Cytochrome P450 6t3) [DRSC07388]: infection score, replicate 1 = 7.75; cell count, replicate 1 = 6183; outcome = inactive
